Share of PSTVd stem 15 variants by leaf site

Source: Wu et al. 2024 (doi:10.1371/journal.ppat.1012142), supplementary data.

PSTVd intermediate strain, stem 15: wild type CUGGAGCGAUCGCUUCGG, pool pattern CUGGAGCGAUNGNNUNNG; upper and lower strand joined, each 5' to 3', the first 9 letters being the upper strand.

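A pool of all variants was put on leaves of three Nicotiana benthamiana plants. Samples came from the inoculated region at 5 days, the leaf margin at 10 and upper systemic leaves at 12.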

Numbers give reads per thousand; 0 = not seen among the reads, higher = more abundant.
Each value is the mean of three plants.
"Pool" is the share in the plasmid pool used as inoculum, on the same scale.
The inoculated region was read from the minus strand, the other sites from the plus strand.
IR is the inoculated region, LM the leaf margin, Sys the systemic leaves.
With 36,693-63,082 reads a sample, very low values are single reads.
Wild type was 10.2 per thousand in the pool and the most common sequence in every sample (inoculated region 285, 367, 312; leaf margin 785, 865, 782; systemic leaves 854, 898, 915).
Sequences that differ at fixed positions probably stem from PCR or sequencing errors, and defective variants can be carried along by functional ones.

CUGGAGCGAUUGCGUUGG (pool 0.695) read IR 0.320; LM 0.0466; Sys 0.535. CUGGAGCGAUUGCUUCAG (pool 0.840) gave IR 0.297; LM 0.0488; Sys 0. With CUGGAGCGAUUGAAUCGG (pool 2.10) the assay gave IR 2.31; LM 0.0610; Sys 0. CUGGAGCGAUGGACUCAG (pool 0.776) gave IR 0.255; LM 0.0276; Sys 0. With CUGGAGCGAUCGUGUGGG (pool 0.614) the assay gave IR 0.204; LM 0.0350; Sys 0.

CUGGAGCGAUUGGUUUUG (pool 2.36) gave IR 1.50; LM 0.0541; Sys 0.0133. CUGGAGCGAUCGAAUAUG (pool 1.12) read IR 0.247; LM 0.00528; Sys 0. For CUGGAGCGAUGGAUUCCG (pool 0.889) the result was IR 0.303; LM 0.0144; Sys 0. With CUGGAGCGAUGGUUUCAG (pool 0.792) the assay gave IR 0.312; LM 0.0563; Sys 0. CUGGAGCGAUGGUCUUGG (pool 0.760) read IR 1.67; LM 0.0441; Sys 0.

For CUGGAGCGAUGGCUUGCG (pool 0.727) the result was IR 0.250; LM 0.0260; Sys 0. For CUGGAGCGAUCGUGUAAG (pool 1.13) the result was IR 0.590; LM 0.0282; Sys 0. CUGGAGCGAUAGUCUCCG (pool 1.97) gave IR 1.20; LM 0.0779; Sys 0. With CUGGAGCGAUAGACUUUG (pool 1.02) the assay gave IR 0.440; LM 0.0144; Sys 0. CUGGAGCGAUAGAUUCGG (pool 0.857) read IR 0.296; LM 0.0548; Sys 0.0132.

CUGGAGCGAUGGCCUUAG (pool 0.905) read IR 2.39; LM 0.498; Sys 0.257. With CUGGAGCGAUCGUCUGGG (pool 0.760) the assay gave IR 0.213; LM 0.0298; Sys 0. CUGGAGCGAUAGAAUUCG (pool 0.873) read IR 0.231; LM 0.0197; Sys 0. For CUGGAGCGAUUGAGUGAG (pool 0.954) the result was IR 0.271; LM 0.0191; Sys 0. With CUGGAGCGAUGGUAUCAG (pool 0.840) the assay gave IR 0.293; LM 0.0365; Sys 0.

CUGGAGCGAUAGUCUGUG (pool 0.873) read IR 0.543; LM 0.0345; Sys 0. For CUGGAGCGAUGGGGUUUG (pool 0.824) the result was IR 0.297; LM 0.0450; Sys 0. CUGGAGCGAUGGACUACG (pool 0.905) gave IR 0.231; LM 0.0372; Sys 0. CUGGCGCGAUCGUAUGCG (pool 0.0162) gave IR 0; LM 0; Sys 0. With CUGGAGCAAUGGGGUAGG (pool 0.0162) the assay gave IR 0; LM 0; Sys 0.

For CUGGAGCGAUGGGUUGCG (pool 0.857) the result was IR 0.323; LM 0.0557; Sys 0. CUGGAGCGAUAGUGUCAG (pool 0.905) read IR 0.214; LM 0.0488; Sys 0. For CUGGAGCGAUCGCUGCGG (pool 0.0485) the result was IR 0.0653; LM 0.0940; Sys 0.111. For CUGGAGCGAUCGCCUCCG (pool 0.889) the result was IR 0.216; LM 0.0334; Sys 0. For CUGGAGCGAUCGGUUUGG (pool 2.05) the result was IR 1.37; LM 0.0334; Sys 0.00664.

CUGGAGCGAUCGAAUACG (pool 1.66) read IR 0.642; LM 0.0244; Sys 0.

Excerpt, the final 3 entries:

{"sequence": "CUGGAGCGAUCGCCUCCG", "pool": "0.889", "IR": 0.216, "LM": 0.0334, "Sys": 0}
{"sequence": "CUGGAGCGAUCGGUUUGG", "pool": "2.05", "IR": 1.37, "LM": 0.0334, "Sys": 0.00664}
{"sequence": "CUGGAGCGAUCGAAUACG", "pool": "1.66", "IR": 0.642, "LM": 0.0244, "Sys": 0}